Results deposited as PubChem BioAssay AID624099 (ICCB-Longwood, 2012).
Purpose: 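Host factors E2 relies on to silence an HPV18 LCR reporter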 (primary screen). System: human C33A cervical carcinoma cells (HPV-negative) stably expressing BPV1 E2 and an HPV18 LCR luciferase reporter. Reagent: siRNA pool against human genes, 40 nM. Time to read-out: 72 h. Read-out: 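HPV18 LCR reporter light per well, converted to plate-wise z-scores that exclude control wells, and averaged over triplicate plates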. Direction: mean z-score and z-score: higher = stronger reporter signal, weaker E2 silencing. Call rule: 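Hit if mean z-score reaches 2 and two or more of three replicate z-scores also reach 2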.
In all, the deposit lists about 21,000 reagents; below is an unselected part. Of all reagents, 497 (2.4%) are marked active. 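Higher z means weaker E2 silencing; only reporter increases were scored, and knock-downs that hurt cell survival may mask genuine repressor factors.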 Unmarked entries are inactive.

{"gene knocked down":"KRTAP1-1 (GeneID 81851)","mean z-score":-0.15,"z-score, replicate A":-0.69,"z-score, replicate B":0.31,"z-score, replicate C":-0.06}
{"gene knocked down":"DYNC1I2 (GeneID 1781)","mean z-score":-0.5,"z-score, replicate A":-0.52,"z-score, replicate B":-0.47,"z-score, replicate C":-0.51}
{"gene knocked down":"EYS (GeneID 346007)","mean z-score":-0.53,"z-score, replicate A":-0.81,"z-score, replicate B":-0.33,"z-score, replicate C":-0.44}
{"gene knocked down":"STAG3L1 (GeneID 54441)","mean z-score":0.2,"z-score, replicate A":0.3,"z-score, replicate B":0.32,"z-score, replicate C":-0.01}
{"gene knocked down":"SEC31B (GeneID 25956)","mean z-score":-1.01,"z-score, replicate A":-0.93,"z-score, replicate B":-0.87,"z-score, replicate C":-1.24}
{"gene knocked down":"SLC35F1 (GeneID 222553)","mean z-score":1.96,"z-score, replicate A":1.68,"z-score, replicate B":2.25,"z-score, replicate C":2.01}
{"gene knocked down":"UGT2A3 (GeneID 79799)","mean z-score":-0.29,"z-score, replicate A":0.57,"z-score, replicate B":-0.65,"z-score, replicate C":-0.81}
{"gene knocked down":"IGFBPL1 (GeneID 347252)","mean z-score":0.34,"z-score, replicate A":0.48,"z-score, replicate B":-0.23,"z-score, replicate C":0.78}
{"gene knocked down":"MSX1 (GeneID 4487)","mean z-score":1.19,"z-score, replicate A":1.51,"z-score, replicate B":1.4,"z-score, replicate C":0.67}
{"gene knocked down":"IFI27 (GeneID 3429)","mean z-score":-1.3,"z-score, replicate A":-1.36,"z-score, replicate B":-1.52,"z-score, replicate C":-1.02}
{"gene knocked down":"UNC5A (GeneID 90249)","mean z-score":-0.4,"z-score, replicate A":-0.38,"z-score, replicate B":-0.61,"z-score, replicate C":-0.21}
{"gene knocked down":"MEX3C (GeneID 51320)","mean z-score":0.12,"z-score, replicate A":0.15,"z-score, replicate B":-0.1,"z-score, replicate C":0.31}
{"gene knocked down":"DEFB127 (GeneID 140850)","mean z-score":0.33,"z-score, replicate A":0.27,"z-score, replicate B":-0.09,"z-score, replicate C":0.81}
{"gene knocked down":"TENT5B (GeneID 115572)","mean z-score":-1.12,"z-score, replicate A":-1.37,"z-score, replicate B":-1.17,"z-score, replicate C":-0.81}
{"gene knocked down":"RPL7AP27 (GeneID 152663)","mean z-score":-1.26,"z-score, replicate A":-1.21,"z-score, replicate B":-1.44,"z-score, replicate C":-1.13}
{"gene knocked down":"CD53 (GeneID 963)","mean z-score":0.17,"z-score, replicate A":0.33,"z-score, replicate B":0,"z-score, replicate C":0.17}
{"gene knocked down":"AP3M1 (GeneID 26985)","mean z-score":-0.57,"z-score, replicate A":-0.91,"z-score, replicate B":-0.26,"z-score, replicate C":-0.54}
{"gene knocked down":"IER2 (GeneID 9592)","mean z-score":-1.3,"z-score, replicate A":-1.48,"z-score, replicate B":-1.15,"z-score, replicate C":-1.28}
{"gene knocked down":"MKNK2 (GeneID 2872)","mean z-score":-1.02,"z-score, replicate A":-1.12,"z-score, replicate B":-0.75,"z-score, replicate C":-1.21}
{"gene knocked down":"CENPP (GeneID 401541)","mean z-score":0.23,"z-score, replicate A":0.58,"z-score, replicate B":0.04,"z-score, replicate C":0.07}
{"gene knocked down":"TMEM92 (GeneID 162461)","mean z-score":-0.4,"z-score, replicate A":-0.49,"z-score, replicate B":-0.48,"z-score, replicate C":-0.22}

A few values from the entries so far.
Value for DEFB127 (GeneID 140850) in “z-score, replicate C”: 0.81
DYNC1I2 (GeneID 1781), z-score, replicate B → -0.47
IER2 (GeneID 9592), z-score, replicate C = -1.28
